Assay results from ChEMBL document CHEMBL1687805, “Colistin resistance in Acinetobacter baumannii is mediated by complete loss of lipopolysaccharide production” (2010).

Key:
[1] = system: Acinetobacter baumannii; experiment: Antibacterial activity against colistin-resistant Acinetobacter baumannii ATCC 19606R harboring empty plasmid pWH1266 by broth microdilution method; type: functional
Procedure, shortened: (§1)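 Broth microdilution MIC in cation-adjusted Mueller-Hinton broth following the CLSI protocol, read in μg/ml. Strains were kept on Mueller-Hinton agar and cultured at 37°C. 19606R was selected directly on 10 μg/ml colistin and maintained with it. The pWH1266 or pAL840 transformants of 19606R were introduced by electroporation and selected on 100 μg/ml ampicillin.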

[2] = system: Acinetobacter baumannii; experiment: Antibacterial activity against colistin-resistant Acinetobacter baumannii ATCC 19606R harboring pAL840 plasmid encoding intact lpxA gene by broth microdilution method; type: functional; procedure, shortened: as §1
[3] = system: Acinetobacter baumannii; experiment: Antibacterial activity against colistin-resistant Acinetobacter baumannii ATCC 19606R exhibiting complete loss of lipopolysaccharide production by broth microdilution method; type: functional; procedure, shortened: as §1
[4] = system: Acinetobacter baumannii; details: isolate FADDI008R

COLISTIN SULFATE
MIC [1]: > 128 mg/L | MIC [2]: 1 mg/L | MIC [3]: > 128 mg/L | MIC [4]: > 128 mg/L
